Source: ChEMBL document CHEMBL3286128 (J Med Chem, 2014)
pIC50: −log10 of the molar value.

Columns and labels:
[1] = target: Human immunodeficiency virus type 1 integrase (Human immunodeficiency virus 1, UniProt Q7ZJM1)
[2] = tested on: Human immunodeficiency virus 1; experiment: Ratio of EC50 for raltegravir-resistant HIV-1 harboring integrase Y143R mutant infected in human HOS cells to EC50 for HIV-1 harboring integrase wild type integrase infected in human HOS cells; format: functional

| SMILES | pIC50 [1] | Ratio EC50 [2] |
| --- | --- | --- |
| COC(=O)[C@H](C)Nc1c(C(=O)NCc2ccc(F)cc2F)c(=O)n(O)c2ncccc12 | 5.13 |  |
| O=C(NCc1ccc(F)cc1F)c1c(Nc2ccccc2)c2cccnc2n(O)c1=O |  | 2 |
| COC(=O)[C@@H](Nc1c(C(=O)NCc2ccc(F)cc2F)c(=O)n(O)c2ncccc12)c1ccccc1 | 4.78 |  |
